From patent publication US7081518, “Anti-mesothelin antibodies having high binding affinity” (US Dept. of Health and Human Services, dated 2006)

How the values were obtained:
SS1(scFv)-PE38 = SS1(scFv)-PE38 (Pseudomonas aeruginosa, UniProt P11439 278-389; P11439 406-638)
D8(scFv)-PE38 = D8(scFv)-PE38 (Pseudomonas aeruginosa, UniProt P11439 278-389; P11439 406-638)
C10(scFv)-PE38 = C10(scFv)-PE38 (Pseudomonas aeruginosa, UniProt P11439 278-389; P11439 406-638)
E4(scFv)-PE38 = E4(scFv)-PE38 (Pseudomonas aeruginosa, UniProt P11439 278-389; P11439 406-638)

B1: recombinant mesothelin (other)
chain: EVEKTACPSGKKAREIDESLIFYKKWELEACVDAALLATQMDRVNAIPFTYEQLDVLKHKLDELYPQGYPESVIQHLGYLFLKMSPEDIRKWNVTSLETLKALLEVNKGHEMSPQVATLIDRFVKGRGQLDKDTLDTLTAFYPGYLCSLSPEELSSVPPSSIWAVRPQDLDTCDPRQLDVLYPKARLAFQNMNGSEYFVKIQSFLGGAPTEDLKALSQQNVSMDLATFMKLRTDAVLPLTVAEVQKLLGPHVEGLKAEERHRPVRDWILRQRQDDLDTLGLGLQGGIPNGYLVLDLSMQEALS
B1 gave a Kd (SS1(scFv)-PE38) of 0.72 nM, a koff (SS1(scFv)-PE38) of 0.000223 s⁻¹ and a kon (SS1(scFv)-PE38) of 311000 M⁻¹ s⁻¹. For the same binder, the Kd (D8(scFv)-PE38) was 0.3 nM, the koff (D8(scFv)-PE38) was 6.22e-05 s⁻¹ and the kon (D8(scFv)-PE38) was 206000 M⁻¹ s⁻¹. For the same binder, the Kd (C10(scFv)-PE38) was 0.2 nM, the koff (C10(scFv)-PE38) was 6.56e-05 s⁻¹ and the kon (C10(scFv)-PE38) was 308000 M⁻¹ s⁻¹. It also gave a Kd (E4(scFv)-PE38) of 3 nM, a koff (E4(scFv)-PE38) of 0.000612 s⁻¹ and a kon (E4(scFv)-PE38) of 211000 M⁻¹ s⁻¹.
